Taken from: PubChem BioAssay AID504761 (Drosophila RNAi Screening Center, 2011)

- Purpose: 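Fly genes whose silencing reduces dengue virus type 2 infection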 (primary screen)
- System: D.Mel-2 cells from Drosophila
- Reagent: long dsRNA against Drosophila genes
- Challenge: infection with dengue virus type 2; dose and infection time not stated
- Read-out: 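Per well on two replicate plates, imaging gave the percent of cells positive for viral envelope protein, ranked by infection, and a nuclear count of cells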
- Direction: infection score: higher = more virus-infected cells; cell count: higher = more cells in the well
- Hit rule: 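Low infection ranks in the two replicates (chance level up to 0.065) followed by a retest with a 1.5-fold or larger significant decrease, p below 0.05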
- Meaning of the calls: active = confirmed: knock-down lowers infection; inactive = not picked or not confirmed
In all, the deposit lists about 22,000 reagents; below is a random part of those with a known target gene and a result. Over the whole deposit, 116 (0.52%) were called active. 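Calls depend on retest data that are not deposited; infection was ranked per plate without normalising between plates; the unit of the infection score is not given.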 The raw values are shown without normalisation. Unmarked entries are inactive. Not all columns of the deposit are shown. Not given: the amount of reagent, the time to read-out.

The opening 2 records as a preview:
no.	gene knocked down	DRSC id	infection score, replicate 1	infection score, replicate 2	cell count, replicate 1
1	CG13449	DRSC09996	2.47	1.46	5536
2	Cdk5	DRSC07359	27.9	12.5	3320

The list itself, repeating the preview:
no.	gene knocked down	DRSC id	infection score, replicate 1	infection score, replicate 2	cell count, replicate 1
1	CG13449	DRSC09996	2.47	1.46	5536
2	Cdk5	DRSC07359	27.9	12.5	3320
3	Rbp9	DRSC00416	1.92	13.5	6420
4	Rbp9	DRSC00779	5.65	1.33	6175
5	Rbp9	DRSC29834	36.6	8.83	5633
6	Ama	DRSC12489	13.1	17	5393
7	lncRNA:CR32730	DRSC22957	2.02	11.7	6488
8	Rnf11	DRSC21574	3.55	4.72	6175
9	Rnf11	DRSC27053	5.54	12.2	6323
10	JhI-26	DRSC06851	14.5	12.9	5275
11	JhI-26	DRSC27424	4.34	1.82	6865
12	CG12395	DRSC19453	1.12	2.72	6269
13	CASK	DRSC14588	3.69	7.74	6318
14	CASK	DRSC16597	7.63	4.83	6515
15	CASK	DRSC16598	5.22	0.84	6155
16	CASK	DRSC21917	14.5	21.9	4389
17	CASK	DRSC29057	4.47	11.8	2193
18	CG34133	DRSC16319	1.51	4.88	6158
19	CG34133	DRSC22239	3.04	8.31	6708
20	CG34133	DRSC25658	2.28	5.8	6584
21	CG34133	DRSC29408	3.36	13.8	655
22	CG14971	DRSC08430	25.9	2.59	6449
23	Nsf2	DRSC22104	1.61	2.3	6843
24	Nsf2	DRSC27428	6.4	11.4	6485
